Measured values taken from the supplement of paper PMC3578754.
Fold change is the IC50 on the isolate divided by the IC50 on a reference virus; 1 = unchanged, higher = more resistant. Changes are given against the subtype B consensus. No active / inactive call. The values were gathered from many studies (numbered anew) with different assays, which the source does not name. Most viruses are clinical isolates; some are laboratory strains or clones with known resistance changes. Isolates with mixed residues are left out; stretches that were not sequenced show no change. Round top values that many isolates share are read here as limits; other very high values and 0.1 may be limits too. The protease changes I3V and N37S, insertions and deletions cannot be read from the source.

Tests used:
Assay in all cases: fold change of IC50 against reference virus; higher = more resistant; Cell-culture drug susceptibility tests of virus bearing the protease of each isolate, gathered from many studies.
[1] = compound: CC(C)(C)NC(=O)[C@@H]1CN(Cc2cccnc2)CCN1C[C@@H](O)C[C@@H](Cc1ccccc1)C(=O)N[C@H]1c2ccccc2C[C@H]1O [indinavir]
[2] = compound: CC(C)(C)NC(=O)[C@@H]1C[C@@H]2CCCC[C@@H]2CN1C[C@@H](O)[C@H](Cc1ccccc1)NC(=O)[C@H](CC(N)=O)NC(=O)c1ccc2ccccc2n1 [saquinavir]
[3] = compound: CC(C)c1nc(CN(C)C(=O)N[C@H](C(=O)N[C@@H](Cc2ccccc2)C[C@H](O)[C@H](Cc2ccccc2)NC(=O)OCc2cncs2)C(C)C)cs1 [ritonavir]
[4] = compound: CCC[C@@]1(CCc2ccccc2)CC(O)=C([C@H](CC)c2cccc(NS(=O)(=O)c3ccc(C(F)(F)F)cn3)c2)C(=O)O1 [tipranavir]
[5] = compound: COC(=O)N[C@H](C(=O)N[C@@H](Cc1ccccc1)[C@@H](O)CN(Cc1ccc(-c2ccccn2)cc1)NC(=O)[C@@H](NC(=O)OC)C(C)(C)C)C(C)(C)C [atazanavir]
[6] = compound: Cc1c(O)cccc1C(=O)N[C@@H](CSc1ccccc1)[C@H](O)CN1C[C@H]2CCCC[C@H]2C[C@H]1C(=O)NC(C)(C)C [nelfinavir]
[7] = compound: Cc1cccc(C)c1OCC(=O)N[C@@H](Cc1ccccc1)[C@@H](O)C[C@H](Cc1ccccc1)NC(=O)[C@H](C(C)C)N1CCCNC1=O [lopinavir]

Row | Test System | fold change of IC50 against reference virus [1] | fold change of IC50 against reference virus [2] | fold change of IC50 against reference virus [3] | fold change of IC50 against reference virus [4] | fold change of IC50 against reference virus [5] | fold change of IC50 against reference virus [6] | fold change of IC50 against reference virus [7]
1 | HIV-1 isolate 615 (protease changes: L10I N37D M46I L63P A71T I72V V77I I84V I85V L89I L90M Q92R I93L, study 64) | 28 | 21 | 28 | 1.9 | 7.4 | 45 | 15
2 | HIV-1 isolate 632 (protease changes: L10I I15V L19I K20R E35D M36I N37E R41K I54V Q58E D60N I62V L63P K70R A71V G73S V82A L90M I93L, study 64) | 23 | 23 | ≥ 800 | 3.3 | 38 | 64 | 47
3 | HIV-1 isolate 635 (protease changes: L10I I13V K20T D60E L63P C67D A71V V77I L90M I93L, study 64) | 4.8 | 3.7 | 4.2 | 0.6 | 3.4 | 9.3 | 1.6
4 | HIV-1 isolate 648 (protease changes: E35D N37T I62V L63P I93L, study 15) | 1.2 | 0.9 | 0.8 | 0.9 | 0.9 | 1.7 | 0.7
5 | HIV-1 isolate 650 (protease changes: R57K D60E L63P I64V G73C V77I L90M, study 64) | 3 | 3.6 | 6.3 | 1 | 3.1 | 7.1 | 1.3
6 | HIV-1 isolate 652 (protease changes: L10I V11I I13V A22V V32I R41K M46I K55R I62V L63P I64V H69Q A71V V82A I84V, study 64) | 7.7 | 3.8 | 49 | 7.9 | 45 | 7.8 | 19
7 | HIV-1 isolate 670 (protease changes: T12I G16E P39S L63T V77I, study 64) | 0.6 | 0.6 | 0.5 | 0.7 | 0.7 | 0.6 | 0.5
8 | HIV-1 isolate 683 (protease changes: R41K L63P V77I, study 64) | 0.6 | 0.7 | 0.8 | 0.9 | 0.7 | 1.2 | 0.6
9 | HIV-1 isolate 702 (protease changes: L10I I13V K14R G16E K20I E35D M36I N37D R41N I54V L63H H69K K70R T74S L76V V82A L89I T91S, study 64) | 15 | 1.1 | 22 | 0.5 | 0.8 | 4.2 | 91
10 | HIV-1 isolate 710 (protease changes: M46L K55R L63P H69Y A71T I84V L90M, study 64) | 3.6 | 8.1 | 17 | 1.2 | 3.7 | 8.6 | 3.1
11 | HIV-1 isolate 719 (protease changes: L10I I13V L19V L24I V32I L33F K43E M46L I54V D60E L63P A71V I72V V82A I84V, study 64) | 24 | 14 | ≥ 800 | 5.5 | 206 | 55 | 116
12 | HIV-1 isolate 724 (protease changes: L10F I13V V32I L33F M36I K45I I54V R57G A71V V82L I84V, study 76) | 90 | 3 | 164 | 69 | 134 | 22 | 59
13 | HIV-1 isolate 732 (protease changes: E35D M36I L63P, study 64) | 0.6 | 0.9 | 1.2 | 1.3 | 1 | 1.3 | 0.9
14 | HIV-1 isolate 745 (protease changes: L10V M46I I62V I64V K70R T74A V77I L90M I93L, study 64) | 2.3 | 1.1 | 1.6 | 0.6 | 1.2 | 3.6 | 1
15 | HIV-1 isolate 752 (protease changes: L10I I13V K20R E35D M36I I62V L63P I64L T74S L90M, study 64) | 1.5 | 2.8 | 5.7 | 1 | 2 | 6 | 0.7
16 | HIV-1 isolate 758 (protease changes: L10I V11I I15V A22V L24I E34D M36I I54V I62V L63P A71V V82A I84V T91S, study 64) | 29 | 51 | 99 | 3 | 31 | 25 | 45
17 | HIV-1 isolate 769 (protease changes: I13V K20T E35D M36I I62V L63P A71T T74S L90M Q92K, study 15) | 11 | 12 | 36 | 4.8 | 23 | 56 | 5.3
18 | HIV-1 isolate 780 (protease changes: L63P V77I I93L, study 64) | 1.3 | 0.9 | 1.2 | 1.1 | 1.2 | 2.1 | 1.1
19 | HIV-1 isolate 799 (protease changes: L63P H69Q K70R V77I, study 64) | 0.9 | 0.5 | 1.2 | 0.8 | 0.7 | 1.8 | 1

Row | Test System | fold change of IC50 against reference virus [1] | fold change of IC50 against reference virus [2] | fold change of IC50 against reference virus [3] | fold change of IC50 against reference virus [4] | fold change of IC50 against reference virus [5] | fold change of IC50 against reference virus [6] | fold change of IC50 against reference virus [7]
20 | HIV-1 isolate 814 (protease changes: I13V M36I R41K Q61K, study 15) | 0.9 | 1 | 1.1 | 1.3 | 0.9 | 1.3 | 0.7
21 | HIV-1 isolate 818 (protease changes: G16E I62V L63T I72V V77I, study 64) | 1.1 | 1.1 | 1.5 | 1.6 | 1.2 | 1.4 | 1.1
22 | HIV-1 isolate 819 (protease changes: L10I L24I R41K M46I L63P I64V V82A I84V, study 64) | 3.8 | 3.4 | 28 | 1.3 | 3.1 | 4.4 | 7.9
23 | HIV-1 isolate 833 (protease changes: R57G, study 76) | 1 | 1 | 1 | 1 | 1 | 1 | 1
24 | HIV-1 isolate 844 (protease changes: I15V K20R E35D M36I N37D F53L L63P H69K A71T I72V V77I V82A, study 15) | 1.8 | 0.8 | 18 | 0.7 | 1.9 | 1.6 | 2.2
25 | HIV-1 isolate 852 (protease changes: V77I I93L, study 64) | 1.1 | 0.8 | 0.8 | 0.7 | 0.8 | 1.4 | 0.7
26 | HIV-1 isolate 856 (protease changes: I13V I64V, study 64) | 0.6 | 0.5 | 0.5 | 0.5 | 0.6 | 1.2 | 0.7
27 | HIV-1 isolate 858 (protease changes: L10F M46I R57K I62V L63P A71T I84V L90M I93L, study 64) | 9.5 | 12 | 11 | 1.1 | 11 | 6.9 | 12
28 | HIV-1 isolate 860 (protease changes: L10I L24F M46I D60E I62V L63P A71V I72V G73S V77I L90M I93L, study 64) | 17 | 21 | 18 | 0.9 | 16 | 49 | 8.9
29 | HIV-1 isolate 873 (protease changes: L63P, study 64) | 1 | 1 | 1.2 | 1.4 | 0.9 | 1.7 | 1
30 | HIV-1 isolate 891 (protease changes: L63P I64L, study 64) | 1 | 1.1 | 1 | 1.2 | 0.6 | 1.4 | 1
31 | HIV-1 isolate 930 (protease changes: Q58E L63P K70R, study 15) | 0.6 | 0.7 | 0.6 | 0.8 | 0.7 | 0.7 | 0.7
32 | HIV-1 isolate 970 (protease changes: L10I L24I L63P I64V I72L V77I V82A, study 15) | 4.6 | 0.9 | 12 | 0.4 | 3.1 | 3.7 | 2.9
33 | HIV-1 isolate 983 (protease changes: L10I E35D M36I R41K I62V L63P A71V T74P L90M I93L, study 64) | 4.8 | 6 | 8.3 | 1.9 | 6.4 | 15 | 2.5
34 | HIV-1 isolate 984 (protease changes: L10I M46L I62V L63P I85V L90M I93L, study 64) | 3.4 | 3.2 | 7.1 | 0.4 | 2.9 | 4.9 | 2.8
35 | HIV-1 isolate 988 (protease changes: L10I V11I I15V Q18H L19I K20I M36I N37D M46I K55R K70R A71V I72M P79D I84V N88T L90M, study 15) | 49 | 92 | 40 | 2.8 | 2.6 | 55 | 36
36 | HIV-1 isolate 1003 (protease changes: L10F I13V K20I L24I M36I M46I I54V D60E L63P I64V I66V A71T I72T G73C I84V T91S, study 64) | 49 | 45 | 171 | 1.3 | 85 | 70 | 114
37 | HIV-1 isolate 1051 (protease changes: I13V M46I L63P T74S V82T, study 15) | 3.5 | 0.5 | 5.3 | 2.4 | 2.6 | 3.5 | 1.9
38 | HIV-1 isolate 1055 (protease changes: I13V N37T L63P, study 64) | 1.2 | 1.3 | 1.3 | 0.9 | 0.8 | 1.4 | 1
